Laboratory results: patent US20250263467A1
Read-outs that look alike come from different tables or passages of the source.

How the values were obtained:
[1] = molecular target: SARS-CoV-2 Spike protein on pseudotyped virus (SARS-CoV-2 (Wuhan-Hu-1)) (UniProt P0DTC2); assay: cell-based or functional assay
[2] = molecular target: SARS-CoV-2 Spike protein on pseudotyped virus (SARS-CoV-2 (Wuhan-Hu-1)) (UniProt P0DTC2); assay: cell-based or functional assay; remark: listed apart in the source

Substance: S309 rIgG1-LS (antibody)
- IC50, neutralization of SARS-CoV-2pp on DBT-ACE2 cells [1]: 3.9 nM
- maximum neutralization, VSV pseudotype, A549-ACE2-TMPRSS2 clone 5 cells [1]: 65%
- IC50, neutralization of SARS-CoV-2pp on DBT-ACE2 cells [2]: 3.82 nM
